Data on two molecules can be found in publication PMC5892559, “Structural basis for the glycosyltransferase activity of the Salmonella effector SseK3” (2018).

By UniProt entry, the sequences of proteins in these tests, tags left out. Residues count along the entry.
UniProt P0DUJ7, 14-335 limits assumed: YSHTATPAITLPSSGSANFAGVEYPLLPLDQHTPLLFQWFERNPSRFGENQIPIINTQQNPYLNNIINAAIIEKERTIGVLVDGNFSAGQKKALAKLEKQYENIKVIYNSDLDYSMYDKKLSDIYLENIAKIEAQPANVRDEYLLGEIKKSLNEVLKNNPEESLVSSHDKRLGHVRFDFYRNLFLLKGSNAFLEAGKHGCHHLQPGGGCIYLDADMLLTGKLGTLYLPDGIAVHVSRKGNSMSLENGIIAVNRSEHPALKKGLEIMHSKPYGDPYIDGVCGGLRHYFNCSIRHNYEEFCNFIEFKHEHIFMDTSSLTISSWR

The target in this experiment is SseK3(14–335) (Salmonella enterica, UniProt P0DUJ7). Kind of experiment: X-ray crystal structure. The following applies: co-crystallised with UDP-GlcNAc and 5 mM MnCl2, ligand hydrolysed in crystal; Mn2+; active site.

Turning to `O=c1ccn([C@@H]2O[C@H](COP(=O)(O)OP(=O)(O)O)[C@@H](O)[C@H]2O)c(=O)[nH]1`, the X-ray crystal structure entry is “the ligand is hydrolyzed with the UDP and N-acetyl α-D-glucosamine still present in the active site”. Next, `CC(=O)N[C@H]1C(O)O[C@H](CO)[C@@H](O)[C@@H]1O` (some centres unmarked): “the ligand is hydrolyzed with the UDP and N-acetyl α-D-glucosamine still present in the active site”.
